Reference: article PMC11915811, “Conformational activation and disulfide exchange in HIV-1 Env induce cell-free lytic/fusogenic transformation and enhance infection” (Journal of Virology, 2025)

Target: HIV-1 JRFL wild-type Env on pseudovirus (HIV-1 (JRFL)) (UniProt Q75760)

Soluble CD4 (from UniProt P01730 26-396) (domain or fragment)
cell-free lysis (p24 release, ELISA) of JRFL pseudovirus by fixed 1,000 nM sCD4 + serial dilutions of Trx1; EC50 of Trx1: 135 nM
